Experiment [1] deals with recombinant HA of H7N3 A/NIBRG/60 (A/mallard/NL/12/00) (influenza A virus). Nature of the experiment: biolayer interferometry (Octet), steady-state fit, geometric mean. Background: BLI is a label-free optical method that tracks binding on a fibre tip over time.
The target of experiment [2] is recombinant HA of H3N2 A/Wisconsin/67/05 (influenza A virus). The experiment is described as above.
Experiment [3] addresses recombinant HA of H3N2 A/Brisbane/10/2007 (influenza A virus). The experiment is described as above.
For experiment [4], the target named is hemagglutinin (HA) of influenza B/Malaysia/2506/04 (Victoria) (influenza B virus). Description: cell-based or functional assay.
Experiment [5] deals with hemagglutinin (HA) of influenza B/Harbin/7/94 (Yamagata) (influenza B virus). Nature of the experiment: cell-based or functional assay.
The target of experiment [6] is hemagglutinin (HA) of influenza B/Massachusetts/02/12 (Yamagata) (influenza B virus). Nature of the experiment: cell-based or functional assay.
The target in experiment [7] is hemagglutinin (HA) of influenza B/Florida/04/06 (Yamagata) (influenza B virus). Nature of the experiment: cell-based or functional assay.
For experiment [8], the target named is hemagglutinin (HA) of influenza B/Lee/40 (Old) (influenza B virus, UniProt P03460 16-584). Nature of the experiment: cell-based or functional assay.
The target of experiment [9] is hemagglutinin (HA) of influenza virus B/Malaysia/2506/04 (Victoria) (influenza B virus). Description: cell-based or functional assay.
For experiment [10], the target named is hemagglutinin (HA) of influenza virus B/Florida/04/06 (Yamagata) (influenza B virus). Nature of the experiment: cell-based or functional assay.
The target in experiment [11] is hemagglutinin (HA) of influenza virus B/Brisbane/60/08 (Victoria) (influenza B virus). Description: cell-based or functional assay.
Experiment [12] concerns the target hemagglutinin (HA) of influenza virus B/Harbin/7/94 (Yamagata) (influenza B virus). Description: cell-based or functional assay.
Experiment [13] concerns the target HA of H1N1 A/California/07/2009 (influenza A virus). Description: cell-based or functional assay.
In experiment [14] the target is HA of B/Brisbane/60/2008 (Victoria) (influenza B virus). Description: AlphaLISA competition vs CR8071.
Experiment [15] concerns the target HA of B/Florida/04/2006 (Yamagata) (influenza B virus). Description: AlphaLISA competition vs CR8071. On the technique in general: Bead proximity is the source of the signal in Alpha formats.
The target in experiment [16] is HA of B/Brisbane/60/2008 (Victoria) (influenza B virus). Description: AlphaLISA competition vs SD1084.
The target is the same in experiment [17]. Description: AlphaLISA competition vs SD1087.
For experiment [18] the target is unchanged. Nature of the experiment: cell-based or functional assay.
For experiment [19], the target named is HA of B/Florida/04/2006 (Yamagata) (influenza B virus). Description: cell-based or functional assay.
For experiment [20], the target named is HA of H3N2 A/Brisbane/10/2007 (influenza A virus). Description: AlphaLISA competition vs SD1038.
Experiment [21] has as its target HA of B/Brisbane/60/2008 (Victoria) (influenza B virus). Nature of the experiment: AlphaLISA competition vs CR9114.
Experiment [22] concerns the target HA of B/Florida/04/2006 (Yamagata) (influenza B virus). Description: AlphaLISA competition vs CR9114.
Experiment [23] has the same target. Nature of the experiment: AlphaLISA competition vs CR8033.
In experiment [24] the target is HA of B/Brisbane/60/2008 (Victoria) (influenza B virus). Nature of the experiment: cell-based or functional assay. The source holds these as a separate data set.
For experiment [25], the target named is HA of B/Florida/04/2006 (Yamagata) (influenza B virus). Description: cell-based or functional assay. The source holds these as a separate data set.
Experiment [26] concerns the target HA of B/Brisbane/60/2008 (Victoria) (influenza B virus). Description: BLI steady state.
Experiment [27] deals with hemagglutinin (HA) of influenza A/NIBRG/60 (A/mallard/Netherlands/12/00) (H7N3) (influenza A virus …). Nature of the experiment: cell-based or functional assay.
In experiment [28] the target is hemagglutinin (HA) of influenza A/Brisbane/10/07 (H3N2) (influenza A virus A/Brisbane/10/07 …). Description: cell-based or functional assay.
The target of experiment [29] is hemagglutinin (HA) of influenza A/California/07/09 (H1N1) (influenza A virus A/California/07/09 …). Description: cell-based or functional assay.
Experiment [30] deals with hemagglutinin (HA) of influenza A/Vietnam/1194/04 (H5N1) (influenza A virus A/Vietnam/1194/04 …). Description: cell-based or functional assay.
Experiment [31] deals with hemagglutinin (HA) of influenza A/Hong Kong/1/68 (H3N2) (influenza A virus A/Hong Kong/1/68 …, UniProt Q91MA7 17-566). Nature of the experiment: cell-based or functional assay.
Experiment [32] concerns the target hemagglutinin (HA) of influenza A/New Caledonia/20/99 (H1N1) (influenza A virus A/New Caledonia/20/99 …). Description: cell-based or functional assay.

B1: MD1211 (bispecific antibody)
chain: EVQLVESGGGLVQPGGSLRLSCAVSISIFDIYAMDWYRQAPGKQRDLVATSFRDGSTNYADSVKGRFTISRDNAKNTLYLQMNSLKPEDTAVYLCHVSLYRDPLGVAGGMGVYWGKGALVTVSSAAAGGGGSGGGGSGGGGSGGGGSGGGGSGGGGSGGGGSEVQLVESGGGLVQAGGSLKLSCAASGRTYAMGWFRQAPGKEREFVAHINALGTRTYYSDSVKGRFTISRDNAKNTEYLEMNNLKPEDTAVYYCTAQGQWRAAPVAVAAEYEFWGQGTQVTVSS
Broadly, the Kd is the free concentration of one partner at which half of the binding sites on the other are occupied at equilibrium, for simple one-to-one binding. Turning to B1, the Kd in experiment [1] came to 2.1 nM; in [2], 0.9 nM; in experiment [3], 1.8 nM.

B2: SD1083 (VHH)
VHH: EVQLVESGGGLVQPGGSLRLSCAATGFTLENKAIGWFRQTPGSEREGVLCISKSGSWTYYTDSMRGRFTISRDNAENTVYLQMDSLKPEDTAVYYCATTTAGGGLCWDGTTFSRLASSWGQGTQVTVSS
Take B2: the “VNA IC50” value stood at 256 nM in experiment [4]; 303 nM in experiment [5]; 260 nM in experiment [6]; 290 nM in experiment [7]; 215 nM in experiment [8].

B3: SD1083 (VHH)
VHH: B2 VHH
Regarding B3, the neutralization titer in experiment [9] was determined as 294 nM; in experiment [10] it was 220 nM; in [11] it was 178 nM; in experiment [12] it was 259 nM.

B4: SD1076 (VHH)
VHH: EVQLVESGGGLVQAGGSLTLSCAGSGFAFSIATMGWYRQAPGKQRELVADITSGGSTNYADSVKGRFTISRDNAKNTVYLQMNSLKPEDTAVYYCNADSLATGWRQYSYWGKGTQVTVSS
notes: llama sdAb
In experiment [13], B4 registered a VNA titer of 3.1 nM.

B5: SD1084 (VHH)
VHH: EVQLVESGGGLVQPGGSLKLSCAASGFTFSTSWMYWLRQAPGKGLEWVSVINTDGGTYYADSVKDRFTISRDNAKDTLYLQMSSLKSEDTAVYYCAKDWGGPEPTRGQGTQVTVSS
For B5, the “VNA IC50” value in experiment [4] is 26 nM; in [5] it was 322 nM; in [6], 35 nM; in experiment [7], 68 nM; in experiment [8] it was greater than 1000 nM.

B6: SD1084 (VHH)
VHH: B5 VHH
Turning to B6, the neutralization titer in experiment [9] is 34.9 nM; in experiment [10], 68.8 nM; in [11], 20.5 nM; in experiment [12] it was 240 nM.

B7: SD1084 (VHH)
VHH: B5 VHH
notes: llama sdAb
For orientation: pIC50 means the IC50 on a negative log10 scale, so that one unit is a factor of ten. Take B7: the pIC50 in experiment [14] is less than 7; in [15], less than 7; in experiment [16], 9.7; in experiment [17] it was less than 7; in experiment [20], less than 7; in [21] it was 7.4. The pIC50 in experiment [22] stood at 8; in [23] it was 8.5. The VNA titer in experiment [18] is 20.5 nM; in experiment [19], 68.8 nM. The figures for the hemagglutination inhibition titer in experiment [24] and in [25] were 0.07 µg/mL and 0.42 µg/mL, respectively. In addition, binding in experiment [26] was characterised by a dissociation constant (Kd) of 109 nM.

For TIFGIRVNTMG (Fc fusion) [FM1W3], the “Average neutralization titers” value in experiment [27] was 8 nM.

B8: MD1212 (VHH)
chain: EVQLVESGGGLVQPGGSLRLSCAVSISIFDIYAMDWYRQAPGKQRDLVATSFRDGSTNYADSVKGRFTISRDNAKNTLYLQMNSLKPEDTAVYLCHVSLYRDPLGVAGGMGVYWGKGALVTVSSAAAGGGGSGGGGSGGGGSGGGGSGGGGSGGGGSGGGGSEVQLVESGGGLVQPGGSLRLSCAVSISIFDIYAMDWYRQAPGKQRDLVATSFRDGSTNYADSVKGRFTISRDNAKNTLYLQMNSLKPEDTAVYLCHVSLYRDPLGVAGGMGVYWGKGALVTVSS
For B8, the figures for the Kd in [1], in experiment [2] and in [3] were 1.5 nM, 0.8 nM and 2.3 nM, respectively.

B9: SD1038 (VHH)
VHH: EVQLVESGGGLVQPGGSLRLSCAVSISIFDIYAMDWYRQAPGKQRDLVATSFRDGSTNYADSVKGRFTISRDNAKNTLYLQMNSLKPEDTAVYLCHVSLYRDPLGVAGGMGVYWGKGALVTVSS
Turning to B9, the “VNA IC50” value worked out at 284 nM in experiment [28]; 2 nM in [29]; 15 nM in [30]; 251 nM in experiment [31]; 7 nM in experiment [32].

Values taken from patent US20190359693A1, “Binding molecules directed against influenza hemagglutinin and uses thereof” (Janssen / Centocor, published 2019).
